# Source: patent US20020082384A1 (priority 2000, published 2002)
# B1: hu-I-309 (peptide, UniProt P22362 24-96, looked up)
# C-C motif chemokine 1: KSMQVPFSRCCFSFAEQEIPLRAILCYRNTSSICSNEGLIFKLKRGKEACALDTVGWVQRHRKMLRHCPSKRK
# Assay: general procedure: Fmoc solid-phase peptide synthesis; Wang resin (polystyrene-based, hydroxymethylphenoxyacetic acid linker), 0.57 mmole/g; DCI (N,N'-diisopropylcarbodiimide)/HOBt
# Conditions: oxidative folding step
molecule,measurement,value
B1,oxidative folding yield,almost 25%
